Test results: patent US20220324835A1 (Nurix Therapeutics, Inc., priority 2018, published 2022)

Experiments:
[1] = tested on: in vitro generated exhausted human T-cells; test: Exhausted T-cell activation assessed by cytokine secretion (autologous SEB/myeloid cell model); conditions: exhausted T-cells stimulated with SEB and autologous myeloid cells, 3 days
[2] = tested on: in vitro generated exhausted human T-cells; conditions: exhausted T-cells stimulated with SEB and autologous myeloid cells; for CTLA4 CD4, fold change over baseline: CD4 T-cells; for CTLA4 CD8, fold change over baseline: CD8 T-cells

| Compound | Cytokines GM-CSF, fold change over baseline [1] | Cytokines IFNγ, fold change over baseline [1] | Cytokines IL-2, fold change over baseline [1] | CTLA4 CD4, fold change over baseline [2] | CTLA4 CD8, fold change over baseline [2] |
| --- | --- | --- | --- | --- | --- |
| C[C@H](c1cc2c(c(C(F)(F)F)c1)CN(c1cccc(C3(Cc4nncn4C)COC3)c1)C2=O)N1CC[C@H](F)C1 [Compound 413, 6-((R)-1-((S)-3-fluoropyrrolidin-1-yl)ethyl)-2-(3-(3-((4-methyl-4H-1,2,4-triazol-3-yl)methyl)oxetan-3-yl)phenyl)-4-(trifluoromethyl)isoindolin-1-one] | C (C indicates >1.61) | C (C indicates >1.61) | C (C indicates >3.01) | C (C indicates >1.61) | C (C indicates >1.61) |
| Cn1cnnc1CC1(c2cccc(N3Cc4c(cc(CN5CC(F)C5)cc4C(F)(F)F)C3=O)c2)COC1 [Compound 415, 6-((3-fluoroazetidin-1-yl)methyl)-2-(3-(3-((4-methyl-4H-1,2,4-triazol-3-yl)methyl)oxetan-3-yl)phenyl)-4-(trifluoromethyl)isoindolin-1-one] | C (C indicates >1.61) | C (C indicates >1.61) | A (A indicates ≤2.50) | C (C indicates >1.61) | C (C indicates >1.61) |
| Cn1cnnc1CC1(c2cccc(N3Cc4c(cc(CN5CC[C@H](C#N)C5)cc4C(F)(F)F)C3=O)c2)COC1 [Compound 422, (S)-1-((2-(3-(3-((4-methyl-4H-1,2,4-triazol-3-yl)methyl)oxetan-3-yl)phenyl)-3-oxo-7-(trifluoromethyl)isoindolin-5-yl)methyl)pyrrolidine-3-carbonitrile] | B (B indicates 1.41-1.60) | A (A indicates ≤1.40) | A (A indicates ≤2.50) | C (C indicates >1.61) | C (C indicates >1.61) |
| Cn1cnnc1C(F)(F)[C@](C)(F)c1cccc(N2Cc3c(cc(C(=O)N4CC[C@H](O)C4)cc3C(F)(F)F)C2=O)c1 [Compound 438, 6-((S)-3-hydroxypyrrolidine-1-carbonyl)-2-(3-((R)-1,1,2-trifluoro-1-(4-methyl-4H-1,2,4-triazol-3-yl)propan-2-yl)phenyl)-4-(trifluoromethyl)isoindolin-1-one] | A (A indicates ≤1.40) | A (A indicates ≤1.40) | B (B indicates 2.51-3.00) | A (A indicates ≤1.40) | A (A indicates ≤1.40) |
| Cn1cnnc1C(F)(F)[C@](C)(F)c1cccc(N2Cc3c(cc(CN4CC[C@@H](F)C4)cc3C(F)(F)F)C2=O)c1 [Compound 450] | B (B indicates 1.41-1.60) | C (C indicates >1.61) | C (C indicates >3.01) | C (C indicates >1.61) | C (C indicates >1.61) |
| COC1CN(Cc2cc3c(c(C(F)(F)F)c2)CN(c2cccc([C@@](C)(F)C(F)(F)c4nncn4C)c2)C3=O)C1 [Compound 452, (R)-6-((3-methoxyazetidin-1-yl)methyl)-2-(3-(1,1,2-trifluoro-1-(4-methyl-4H-1,2,4-triazol-3-yl)propan-2-yl)phenyl)-4-(trifluoromethyl)isoindolin-1-one] | C (C indicates >1.61) | C (C indicates >1.61) | B (B indicates 2.51-3.00) | C (C indicates >1.61) | C (C indicates >1.61) |
| Cn1cnnc1C(F)(F)[C@](C)(F)c1cccc(N2Cc3c(cc(CN4CC[C@@H](C#N)C4)cc3C(F)(F)F)C2=O)c1 [Compound 455, (R)-1-((3-oxo-2-(3-((R)-1,1,2-trifluoro-1-(4-methyl-4H-1,2,4-triazol-3-yl)propan-2-yl)phenyl)-7-(trifluoromethyl)isoindolin-5-yl)methyl)pyrrolidine-3-carbonitrile] | C (C indicates >1.61) | C (C indicates >1.61) | A (A indicates ≤2.50) | C (C indicates >1.61) | C (C indicates >1.61) |
| C[C@H](Cc1nncn1C)c1cccc(NC(=O)c2cc3cc(N4CCNCC4)ccc3cn2)c1 [Compound 472, N-{3-[(2R)-1-(4-methyl-4H-1,2,4-triazol-3-yl)propan-2-yl]phenyl}-6-(piperazin-1-yl)isoquinoline-3-carboxamide] | A (A indicates ≤1.40) | C (C indicates >1.61) | A (A indicates ≤2.50) | B (B indicates 1.41-1.60) | B (B indicates 1.41-1.60) |
| Cn1cnnc1CC1(c2cccc(NC(=O)c3cc(CN4CCC5(CC5)C4)cc(C4CC4)n3)c2)COC1 [Compound 519, 4-((5-azaspiro[2.4]heptan-5-yl)methyl)-6-cyclopropyl-N-(3-(3-((4-methyl-4H-1,2,4-triazol-3-yl)methyl)oxetan-3-yl)phenyl)picolinamide] | C (C indicates >1.61) | C (C indicates >1.61) | B (B indicates 2.51-3.00) | C (C indicates >1.61) | C (C indicates >1.61) |
| Cn1cnnc1CC1(c2cccc(N3Cc4c(cc(CN5CCC6(CC6)C5)cc4C(F)(F)F)C3=O)c2)COC1 [Compound 520, 6-((5-azaspiro[2.4]heptan-5-yl)methyl)-2-(3-(3-((4-methyl-4H-1,2,4-triazol-3-yl)methyl)oxetan-3-yl)phenyl)-4-(trifluoromethyl)isoindolin-1-one] | B (B indicates 1.41-1.60) | A (A indicates ≤1.40) | B (B indicates 2.51-3.00) | C (C indicates >1.61) | C (C indicates >1.61) |
